PubChem BioAssay AID504761, Drosophila RNAi Screening Center, 2011
Test: 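Insect host genes that dengue virus relies on to spread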 (primary screen). System: D.Mel-2 cells from Drosophila. Knock-down reagent: long dsRNA against Drosophila genes. Conditions: infection with dengue virus type 2; dose and infection time not stated. Measured: 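Per well on two replicate plates, imaging gave the percent of cells positive for viral envelope protein, ranked by infection, and a nuclear count of cells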. Scale: infection score: higher = more virus-infected cells; cell count: higher = more cells in the well. Rule for the call: 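Very low infection ranking in both replicate wells (chance probability at most 0.065), then a retest showing infection dropped 1.5-fold or more at p below 0.05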. Calls: active = confirmed: knock-down lowers infection; inactive = not picked or not confirmed.
The deposit covers about 22,000 reagents; shown is a random part of those that have a named target and a result. Of all reagents, 116 (0.52%) were called active. 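Calls depend on retest data that are not deposited; infection was ranked per plate without normalising between plates; the unit of the infection score is not given.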 Raw values are not corrected between plates. Names joined by + are all predicted targets of the reagent. The record does not give: the amount of reagent, the time to read-out.

predicted target | dsRNA | infection score, replicate 1 | infection score, replicate 2 | cell count, replicate 1 | cell count, replicate 2 | outcome
CG15452 | DRSC20523 | 16 | 13.3 | 5729 | 5747 | inactive
CG31111 | DRSC14649 | 5.47 | 12.5 | 1665 | 6082 | inactive
CG13887 | DRSC08357 | 9.9 | 10.5 | 5821 | 4283 | inactive
Oda (Ornithine decarboxylase antizyme) | DRSC07626 | 2.92 | 4.23 | 5758 | 6099 | active
Oda (Ornithine decarboxylase antizyme) | DRSC28076 | 11.6 | 4.14 | 6261 | 6378 | inactive
CG15263 | DRSC01974 | 1.88 | 7.65 | 6844 | 6925 | inactive
CG15263 | DRSC27309 | 3.59 | 14.9 | 6654 | 6764 | inactive
CG13675 | DRSC23124 | 1.41 | 2.72 | 6468 | 7013 | inactive
CG31345 | DRSC14193 | 1.13 | 9.76 | 6483 | 6425 | inactive
CG31345 | DRSC14847 | 8.05 | 19.2 | 6238 | 4315 | inactive
scpr-A + scpr-C | DRSC15737 | 1.8 | 2.85 | 6629 | 6492 | inactive
CG30222 | DRSC04125 | 4.43 | 1.41 | 6837 | 6682 | inactive
CG30222 | DRSC04262 | 2.64 | 9.14 | 6882 | 6905 | inactive
CG14722 | DRSC14944 | 4.79 | 8.09 | 6434 | 6444 | inactive
CG14722 | DRSC24593 | 20.8 | 6.43 | 6220 | 6317 | inactive
CG30089 | DRSC06126 | 1.23 | 2.58 | 6366 | 7206 | inactive
CG30089 | DRSC06267 | 14.3 | 16.4 | 6818 | 7014 | inactive
CG30089 | DRSC06268 | 1.98 | 0.97 | 6271 | 6593 | inactive
CG8777 | DRSC07263 | 8.48 | 10.7 | 5864 | 5901 | inactive
CG32428 | DRSC11697 | 27.2 | 32.5 | 6496 | 4887 | inactive
CG32428 | DRSC11768 | 5.33 | 4.9 | 6168 | 6104 | inactive
CG32428 | DRSC25993 | 2.1 | 4.3 | 6915 | 6305 | inactive
ninaA (neither inactivation nor afterpotential A) | DRSC00830 | 5.72 | 3.48 | 6256 | 6902 | inactive
Surf1 (Surfeit 1) | DRSC11295 | 3.82 | 2.71 | 6232 | 5858 | inactive
Surf1 (Surfeit 1) | DRSC11394 | 11.8 | 6.6 | 6265 | 6511 | inactive
CG10920 | DRSC17765 | 5.43 | 15.9 | 2008 | 5146 | inactive
CG15376 (retired record) | DRSC18046 | 0.48 | 7.9 | 6856 | 5459 | inactive
CG15376 (retired record) | DRSC25097 | 1.05 | 4.55 | 6447 | 6415 | inactive
UQCR-Q (Ubiquinol-cytochrome c reductase ubiquinone-binding protein) | DRSC10886 | 4.21 | 12.7 | 5789 | 5781 | inactive
atos (atossa) | DRSC07318 | 7.77 | 3.16 | 6179 | 6363 | inactive
betaNACtes6 + betaNACtes3 | DRSC27147 | 17.3 | 16.6 | 5609 | 6775 | inactive
CG7252 | DRSC10789 | 16.5 | 16.2 | 5625 | 5642 | inactive
CG7252 | DRSC21492 | 4.67 | 3.17 | 5550 | 5642 | inactive
epsilonTry (epsilonTrypsin) | DRSC07611 | 12.2 | 4.87 | 5564 | 5710 | inactive
epsilonTry (epsilonTrypsin) | DRSC25110 | 4.25 | 0.6 | 5713 | 5649 | inactive
Mid1 | DRSC04231 | 3.82 | 25.3 | 6755 | 4676 | inactive
Mid1 | DRSC04308 | 17.9 | 11.2 | 5101 | 6257 | inactive
Mid1 | DRSC22773 | 0.71 | 7.37 | 5739 | 6184 | inactive
Mid1 | DRSC22803 | 1.26 | 19.6 | 5853 | 4846 | inactive
Mid1 | DRSC25509 | 4.87 | 9.48 | 6667 | 6559 | inactive
Mid1 | DRSC28634 | 21 | 7.43 | 3579 | 2032 | inactive
CG15916 | DRSC19740 | 18.4 | 5 | 5970 | 6637 | inactive
CG9702 | DRSC16540 | – | 1.5 | 356 | 734 | inactive
CstF50 (Cleavage stimulation factor 50 kD subunit) | DRSC15434 | 2.94 | 1.3 | 5375 | 6225 | inactive
CG32376 | DRSC22754 | 4.2 | – | 5880 | 378 | inactive
CG11456 | DRSC11665 | 11.3 | 5.57 | 5691 | 6388 | inactive
Ect3 (Ectoderm-expressed 3) | DRSC15462 | 5.62 | 4.62 | 6693 | 6608 | inactive
Ect3 (Ectoderm-expressed 3) | DRSC25392 | 4.04 | 3.12 | 6753 | 7016 | inactive
Or71a (Odorant receptor 71a) | DRSC11244 | 2.27 | 3.14 | 6558 | 6024 | inactive
CG11504 | DRSC14318 | 3.37 | 5.97 | 6181 | 6331 | inactive
CG9458 | DRSC16495 | 4.76 | 8.78 | 6539 | 6381 | inactive
bocks (bocksbeutel) | DRSC16489 | 7.26 | 4.78 | 6719 | 6784 | inactive
Thor | DRSC00770 | 2.57 | 1.52 | 6622 | 6433 | inactive
CG5214 | DRSC15739 | 10.3 | 20.8 | 4332 | 4135 | inactive
CG5214 | DRSC22842 | 3.18 | 1.52 | 6168 | 6451 | inactive
CG5214 | DRSC25298 | 7.69 | 5.24 | 5682 | 5423 | inactive
Ogg1 (8-oxoguanine DNA glycosylase) | DRSC17738 | 4.14 | 1.4 | 6736 | 6501 | inactive
ras (raspberry) | DRSC18825 | 5.57 | 3.43 | 6540 | 6495 | inactive
ras (raspberry) | DRSC27137 | 2.55 | 7.23 | 6235 | 5716 | inactive

Not a retest: an excerpt of the list.
predicted target | dsRNA | infection score, replicate 1 | infection score, replicate 2 | cell count, replicate 1 | cell count, replicate 2 | outcome
CG30089 | DRSC06268 | 1.98 | 0.97 | 6271 | 6593 | inactive
CG8777 | DRSC07263 | 8.48 | 10.7 | 5864 | 5901 | inactive
CG32428 | DRSC11697 | 27.2 | 32.5 | 6496 | 4887 | inactive
